Results from paper PMC11925246 (Journal of Bacteriology, 2025).

System: R. pseudosolanacearum resting cells
Type: cell-based
Conditions: malic acid 0.5 mM or sucrose 0.01%; for Cell number after incubation: 20 h, room temperature, start 1.4 × 10^8 CFU/mL (Fig. S2); for Effect on viability of resting cells: at least 20 h of incubation

SMILES	Cell number after incubation	Effect on viability of resting cells
OC[C@H]1O[C@@](CO)(O[C@H]2O[C@H](CO)[C@@H](O)[C@H](O)[C@H]2O)[C@@H](O)[C@@H]1O [sucrose]	8.2 × 10^8 CFU/mL	did not affect the viability
O=C(O)CC(O)C(=O)O (stereo not shown) [Malic acid, malic acid]	6.8 × 10^8 CFU/mL	did not affect the viability
